Anti-infective test results gathered from many reports (values: NIAID ChemDB through PubChem).

Common to all: tests in culture; agent: Hepatitis C virus; read-out: inhibition

An empty or dashed field is not shown. Conditions beyond the fields shown may differ between rows. Inhibition is in % at the dose shown (toxicity tests: loss of growth or viability).

SMILES	strain	dose	setting	cell line	value
O=c1nc(NO)ccn1[C@@H]1O[C@H](CO)[C@@H](O)[C@H]1O	-	5 µM	4 d	Huh7 replicon	90%
CCN(CC)Cc1ccc(C(=O)N(CCc2ccccc2OC)C2CCNC2)cc1	JFH-1	9.5 µM	-	Huh7.5	90%
O=C1C[C@@H](c2ccc(O)cc2)Oc2cc(O)cc(O)c21	-	200 µM	-	-	79%
COc1cc(Cc2cnc(/N=C3\C(=O)N(CN4CCN(Cc5ccccc5)CC4)c4ccc(F)cc43)nc2N)cc(OC)c1OC	-	50 µg/mL	-	Huh7	97%
COc1cccc(N2CCN(CN3C(=O)/C(=N\c4ncc(Cc5cc(OC)c(OC)c(OC)c5)c(N)n4)c4cc(C)ccc43)CC2)c1	-	50 µg/mL	-	Huh7	100%
COc1cc(Cc2cnc(/N=C3\C(=O)N(CN4CCN(c5c(F)cc6c(=O)c(C(=O)O)cn(C7CC7)c6c5OC)CC4C)c4ccc(F)cc43)nc2N)cc(OC)c1OC	-	50 µg/mL	-	Huh7	92%
COc1cc(Cc2cnc(/N=C3\C(=O)N(CN4CCNCC4)c4ccc(C)cc43)nc2N)cc(OC)c1OC	-	50 µg/mL	-	Huh7	96%
CCC(NC(=O)[C@@H]1[C@H]2CC[C@@H](F)[C@H]2CN1C(=O)[C@@H](NC(=O)[C@@H](NC(=O)c1cnccn1)C(C)C)C(C)C)C(=O)C(=O)NC1CC1	-	25 µM	-	-	84%
C=CCNC(=O)C(=O)C(CCC)NC(=O)[C@@H]1[C@@H]2[C@H](CN1C(=O)[C@@H](NC(=O)N[C@H](CN1Cc3ccccc3S1(=O)=O)C(C)(C)C)C(C)(C)C)C2(C)C	-	0.15 µM	-	-	90%
CC(C)(C)NC(=O)N[C@H](C(=O)N1C[C@H]2[C@@H]([C@H]1C(=O)NC(CC1CCC1)C(=O)C(N)=O)C2(C)C)C(C)(C)C	1b	2.3 µM	-	Huh7	90%
COc1cc(Cc2cnc(/N=C3\C(=O)N(CN4CCN(c5cc6c(cc5F)c(=O)c(C(=O)O)cn6C5CC5)CC4)c4ccc(F)cc43)nc2N)cc(OC)c1OC	-	50 µg/mL	-	Huh7	100%
COc1cc(Cc2cnc(/N=C3\C(=O)N(CN4CCN(c5ccc6c(c5F)c(=O)c(C(=O)O)cn6C5CC5)CC4)c4ccc(C)cc43)nc2N)cc(OC)c1OC	-	50 µg/mL	-	Huh7	97%
CC(=O)OC[C@]12[C@H](OC(C)=O)[C@H](OCc3ccccc3)[C@@H]3[C@@H](OC(C)=O)[C@@]14O[C@@]3(C)COC(=O)c1cccnc1C(C)C(C)C(=O)O[C@@H]([C@H](OC(C)=O)[C@@H]2OC(C)=O)[C@]4(C)O	Cell culture J6/JFH-1	50 µM	-	Huh7.5	96%
CCn1cc(C(=O)O)c(=O)c2c(F)c(N3CCN(CN4C(=O)/C(=N\c5ncc(Cc6cc(OC)c(OC)c(OC)c6)c(N)n5)c5cc(C)ccc54)C(C)C3)c(F)cc21	-	50 µg/mL	-	Huh7	92%
COc1nc(N)nc2c1ncn2[C@@H]1O[C@H](COP(=O)(N[C@@H](C)C(=O)OC(C)C)Oc2ccccc2)[C@@H](O)[C@@]1(C)F	H77	0.0086 µM	-	CEM	90%
COc1cc(Cc2cnc(/N=C3\C(=O)N(CN4CCN(c5c(OC)cc6c(c5F)c(=O)c(C(=O)O)cn6C5CC5)CC4C)c4ccc(C)cc43)nc2N)cc(OC)c1OC	-	50 µg/mL	-	Huh7	65%
CCn1cc(C(=O)O)c(=O)c2cc(F)c(N3CCN(CN4C(=O)/C(=N\c5ncc(Cc6cc(OC)c(OC)c(OC)c6)c(N)n5)c5cc(F)ccc54)C(C)C3)c(F)c21	-	50 µg/mL	-	Huh7	89%
COc1cc(Cc2cnc(/N=C3\C(=O)N(CN4CCN(c5ccccc5)CC4)c4ccc(C)cc43)nc2N)cc(OC)c1OC	-	50 µg/mL	-	Huh7	91%
COc1cc(Cc2cnc(/N=C3\C(=O)N(CN4CCCC4)c4ccc(F)cc43)nc2N)cc(OC)c1OC	-	50 µg/mL	-	Huh7	88%

The first 2 rows once more:

{"SMILES": "O=c1nc(NO)ccn1[C@@H]1O[C@H](CO)[C@@H](O)[C@H]1O", "dose": "5 µM", "setting": "4 d", "cell line": "Huh7 replicon", "value": "90%"}
{"SMILES": "CCN(CC)Cc1ccc(C(=O)N(CCc2ccccc2OC)C2CCNC2)cc1", "strain": "JFH-1", "dose": "9.5 µM", "cell line": "Huh7.5", "value": "90%"}